Pooled drug test results. Numbers come from NIAID ChemDB, via PubChem.

Common to all: toxicity to cultured cells; cells: VERO; endpoint: CC50

Rows are shuffled and stem from different studies. CCn: concentration that lowers growth or viability of the cells by n%. Blank or dashed fields: not listed here.

smiles,method,value
S=C(Nc1ccccc1)c1ccccn1,,>10 µg/mL
O=C(Nc1ccc(Cl)cc1)NC1N=C(c2ccccc2)c2ccccc2NC1=O,,3 µM
Nc1nccc2c1ncn2[C@@H]1C=C(CO)[C@@H](O)[C@H]1O,neutral red,2.6 µg/mL
CCn1cc(C(N)=O)c(=O)c2ccc(-c3cc(C)no3)cc21,,>100 µg/mL
O=C(NC1N=C(c2ccccc2)c2cc(Cl)ccc2NC1=O)c1cccs1,,3 µM
Nc1ccc2nc3cc(Nc4ccccc4)c(=Nc4ccccc4)cc-3n(-c3ccccc3)c2c1,,9.2 µg/mL
Cc1ccc(-n2cc(C(N)=O)c(=O)c3ccc(-c4ccncc4)cc32)cc1C,,>100 µg/mL
COC1/C=C/OC2(C)Oc3c(C)c(O)c4c(c3C2=O)C(=O)C([N+](=O)[O-])=C(NC(=O)/C(C)=C\C=C\C(C)C(O)C(C)C(O)C(C)C(OC(C)=O)C1C)C4=O,,56.96 µg/mL
Nc1ncn([C@@H]2O[C@H](CO)[C@@H](O)[C@H]2O)c(=O)n1,neutral red,565 µg/mL
O=C1Nc2ccccc2C(c2ccccc2)=NC1NS(=O)(=O)c1ccccc1Br,,6 µM
CCn1cc(C(N)=O)c(=O)c2ccc(-c3cnc(C)s3)cc21,,>100 µg/mL
CN1CSC(=S)N(C)C1,,<2.06 µg/mL
CCn1cc(C(N)=O)c(=O)c2ccc(-c3ccccn3)cc21,,>25 µg/mL
CO[C@H]1/C=C/O[C@@]2(C)Oc3c(C)c(O)c4c(c3C2=O)C(=O)C=C(NC(=O)/C(C)=C\C=C\[C@H](C)[C@H]2OC(C)(C)O[C@@H]([C@@H](C)[C@H](OC(C)=O)[C@@H]1C)[C@@H]2C)C4=O,,4.06 µg/mL
NC1=NCN([C@@H]2O[C@H](CO)[C@@H](O)[C@H]2O)C(=O)N1,,90 µg/mL
CCn1cc(C(N)=O)c(=O)c2ccc(N3CCN(C)CC3)cc21,,>50 µg/mL
O=C(NC1N=C(c2ccccc2)c2ccccc2NC1=O)c1cccnc1,,3 µM
CCn1c2cc(C)c(C)cc2nc2cc3c(cc21)c(Cl)c(=O)c1ccccc13,,>10 µg/mL
Cc1ccc(C(=O)Nc2ccc(S(=O)(=O)O)c3cc(S(=O)(=O)O)cc(S(=O)(=O)O)c23)cc1NC(=O)c1cccc(NC(=O)Nc2cccc(C(=O)Nc3cc(C(=O)Nc4ccc(S(=O)(=O)O)c5cc(S(=O)(=O)O)cc(S(=O)(=O)O)c45)ccc3C)c2)c1,neutral red,152 µg/mL
CC1CCCCN1.CC1CCCCN1C(=S)S,,3.5 µg/mL
O=C1Nc2ccccc2C(c2ccccc2)=NC1NCc1ccccc1[N+](=O)[O-],,20 µM